# “And” between values parts separate entries of the source, which are not always exact repeats. Equal entries are not always repeated. “Also recorded” adds a separate entry of the source. Where two headings read alike, the source gives them in different places.
# Assays:
# HIV-1 [1] = details: for relative effectiveness among commercial hCG preparations in inhibiting HIV infection and replication: rank order
# Method: Sequences of the peptides are as follows:
# HIV-1 infected cells were treated with the above preparations and the virus was measured.
# HIV-1 LTR = HIV-1 LTR driven CAT reporter expression in HUT 78; format: cell-based; details: 40 hours
# HIV-1 [2] = details: for cholestasis (adverse event): patient PH-OJ, preexisting cholestasis, higher doses of hCG, required hospitalization; for CD4/mm^3 Rx: post treatment with hCG, (M) = month from enrollment; for Viral Load Rx: post treatment
# HIV-1 transgenic mice = format: in vivo; details: for growth retardation and cachexia: branched peptide 10 μg to mothers s.c. daily for 10 days; for HIV-1 gene expression in skin biopsies (RT-PCR): Tg26 mice, hCG (APL) 300-500 I.U. to mothers s.c. twice weekly, pups via milk
# SIVmac251 = assay: SIV infected rhesus monkeys treated with hCG preparation; format: in vivo
# HIV = details: literature; cited from earlier work
# HIV-1 [3] = details: purified heterodimeric hCG; cited from earlier work
# [4] = p24 antigen days 3 to 10, peptides 0.05 to 50 nmoles/ml, hCG 0.01 to 1,000 IU, native β-hCG 100 to 1,000 μg
# [5] = RT-PCR (R), one patient per row
substance,measurement,setting,value
"CR127: highly purified native hCG heterodimer supplied by the National Hormone and Pituitary Program, NIH [reference compound]",inhibition of HIV-1 infection/replication in acutely infected cells,HIV-1 [1]; [4],little or no inhibition
same,inhibition of HIV-1 infection/replication in acutely infected cells,"HIV-1 [1]; p24 antigen days 3 to 10, peptides 0.05 to 50 nmoles/ml, hCG 0.01 to 1,000 IU, native β-hCG 100 to 1,000 μg, listed as highly purified hCG preparation",not to be active
"hCG APL: commercial preparation of native hCG (APL, Wyeth Ayerst)",normal transcription from the LTR detected,HIV-1 LTR; 100 IU/ml,78%
same,normal transcription from the LTR detected,HIV-1 LTR; 500 IU/ml,36%
same,Weight gain,HIV-1 [2]; listed as APL,−0.9 kG and +1.8 kG (2×) and +1.4 kG and +3.2 kG and +4.5 kG and +2.3 kG (2×) and −5.0 kG and +5.4 kG and +10.0 kG
same,cholestasis (adverse event),HIV-1 [2],exacerbation of preexisting cholestasis
same,CD4/mm^3 Rx,HIV-1 [2]; listed as APL,170 (M4) /mm^3 and 48 (M4) /mm^3 and 424 (M4) /mm^3 and 21 (M3) /mm^3 and 213 /mm^3 and 678 /mm^3 and 218 /mm^3 and 86 /mm^3 and 361 /mm^3 and 46 /mm^3 and 483 /mm^3
same,Viral Load Rx,"HIV-1 [2]; Roche Amplicor (A), one patient per row, listed as APL","1,700A and 40,000A and 55,000A and 98,000A and 22,313A and 6,777A and 200A and 22,510A"
same,growth retardation and cachexia,HIV-1 transgenic mice; HIV-1 transgenic mice,reversal
same,HIV-1 gene expression in skin biopsies (RT-PCR),HIV-1 transgenic mice,marked down regulation; also recorded: marked decrease
same,CD4+ T cells,"SIVmac251; 3,000 IU 2 times weekly, maintained over 7 months",increase in CD4^+ T cells to normal levels
same,inhibition of HIV-1 infection/replication in acutely infected cells,HIV-1 [1]; [4],dose dependent inhibition
same,inhibition of HIV-1 infection/replication in acutely infected cells,"HIV-1 [1]; p24 antigen days 3 to 10; peptides 0.05 to 50 nmoles/ml, hCG 0.01 to 1,000 IU, native β-hCG 100 to 1,000 μg; Wyeth Ayerst)",active
"hCG Pregnyl: commercial native hCG preparation, Pregnyl (Organon)",Weight gain,HIV-1 [2],+3 kG (2×) and +2 kG (2×) and +1 kG (3×) and −3 (diet) kG and 0 kG (2×) and +1.5 kG (3×) and +6 kG
same,CD4/mm^3 Rx,HIV-1 [2],3 (M4) /mm^3 and 35 (M2) /mm^3 and 17 (M3) /mm^3 and <5 (M1) /mm^3 and 505 (M3) /mm^3 and 89 (M2) /mm^3 and 5 (M1) /mm^3 and 202 (M2) /mm^3 and 10 (M4) /mm^3 and 10 (M2) /mm^3 and 72 (M3) /mm^3 and 14 /mm^3 and 12 /mm^3 and 35 (1M) /mm^3 and 160 (M4) /mm^3 and 204 (M20) /mm^3
same,Viral Load Rx,"HIV-1 [2]; NASBA (N), one patient per row","150,000N and <4,000N and 300,000 and 11,000"
same,Viral Load Rx,HIV-1 [2]; [5],"2,500R"
same,Viral Load Rx,"HIV-1 [2]; TCID (T), patient PH-DP, 1 mo, PreRx 100T",1T (1 mo)
same,relative effectiveness among commercial hCG preparations in inhibiting HIV infection and replication,HIV-1 [1],followed by
same,relative effectiveness among commercial hCG preparations in inhibiting HIV infection and replication,HIV-1 [1]; listed as pregnyl,next most effective
"hCG: human chorionic gonadotropin preparation, brand not stated at the place (or both Pregnyl and APL, 'PA')","last viral load measurement, patient PG-18","HIV-1 [2]; 3673 before hCG, started Crixivan after hCG",1742 copies
same,"last viral load measurement, patient PG-16","HIV-1 [2]; 47,931 before hCG, started Ritonavir after hCG",370 copies
same,"CD4+ T cell levels, patient PH-OJ",HIV-1 [2]; CD4+ T cells below 10 at start,did not experience an increase
same,"decrease in viral load, patient PH-VE",HIV-1 [2]; NASBA,1.5 log
same,"viral load, patient PH-VE","HIV-1 [2]; NASBA, from 230,000 copies","11,000 copies"
same,"viral load, patient PH-SPBE","HIV-1 [2]; NASBA, from 1,400,000 copies, systemic 25,000 then 40,000-60,000 IU per week, before Ritonavir","700,000 copies and 770,000 copies"
same,"viral load, other patients e.g. PG-3 and PG-15","HIV-1 [2]; PG-3 on multiple drugs, PG-15 on no other therapy",stable viral load or demonstrated increases in viral load
same,"viral load, patient PH-OJ","HIV-1 [2]; RT-PCR, from 100,000",2500 copies
same,"last viral load measurement, patient PG2","HIV-1 [2]; Roche Amplicor, 10,496 before hCG, started Norvir after hCG","15,542 copies"
same,"reduction in viral load, patient PH-DP","HIV-1 [2]; TCID assay, CDC stage B1, no KS, no change in anti-viral therapy",2 log
same,"CD4+ T cells, patient PH-VE",HIV-1 [2]; at 68 weeks of hCG therapy,204 mm^3
same,"CD4+ T cell levels, patient PH-VE","HIV-1 [2]; from 100 mm3, intralesional then subcutaneous injections for 6 weeks",160 mm^3
same,Weight gain,HIV-1 [2]; listed as hCG preparation,+1 kG and 0 kG
same,"toxicity, patient PH-VE",HIV-1 [2]; more than 80 weeks of therapy,without toxicity
same,"rise of CD4+ T cell levels, patient PG-4",HIV-1 [2]; no other antiviral therapy,10 fold
same,"CD4+ T cell levels, patient PG-4","HIV-1 [2]; no other antiviral therapy, from 47 mm^3",424 mm^3
same,"CD4+ T cells, patient PH-SPBE",HIV-1 [2]; on hCG before Ritonavir,stabilized in the mid-100
same,"drop in viral load, patient PG-1",HIV-1 [2]; on reverse transcriptase inhibitors at enrollment,1 log
same,cholestasis (adverse event),HIV-1 [2],cholestasis was exacerbated
same,CD4/mm^3 Rx,HIV-1 [2],174 (M3) /mm^3
same,Viral Load Rx,"HIV-1 [2]; NASBA (N), one patient per row","770,000"
same,Viral Load Rx,HIV-1 [2]; [5],500R
same,CD4+ T cell levels in the other patients on anti-virals,"HIV-1 [2]; systemic hCG trial, including protease inhibitors",stable or increased
same,"viral load, patient PH-JPV","HIV-1 [2]; week 4 of hCG alone, 500,000 (Roche Amplicor) before hCG","4,900,000 copies"
same,hyperkeratosis of the skin / histology,HIV-1 transgenic mice; HIV-1 transgenic mice,regressed
same,"HIV viral proteins (gp120, Nef) in skin biopsies, immunostaining",HIV-1 transgenic mice; after 2 weeks treatment,marked decrease
same,"HIV viral proteins (gp120, Nef) in skin biopsies, immunostaining",HIV-1 transgenic mice; after 30 days of hCG treatment,no detectable HIV proteins
same,effective weekly dose,HIV-1 transgenic mice; mice,300-500 I.U.
same,reappearance of viral protein expression after treatment was halted,HIV-1 transgenic mice; not shown,2 weeks
same,effective weekly dose,SIVmac251; monkeys,"6,000 I.U."
same,T cell counts and physical symptoms in certain HIV infected subjects,HIV,improved T cell counts and physical symptoms
same,reverse transcriptase activity in HIV-1 infected lymphocytes and monocytes in culture,HIV-1 [3],reduce the reverse transcriptase activity
same,transmission of HIV from lymphocytes to trophoblasts in vitro,HIV-1 [3],prevent transmission of HIV
native α-hCG: native α subunit of hCG [reference compound],growth retardation and cachexia,HIV-1 transgenic mice; HIV-1 transgenic mice,no effect
same,HIV-1 gene expression in skin biopsies (RT-PCR),HIV-1 transgenic mice,no effect
same,inhibition of HIV-1 infection/replication in acutely infected cells,HIV-1 [1]; [4],little or no effect
same,inhibition of HIV-1 infection/replication in acutely infected cells,"HIV-1 [1]; p24 antigen days 3 to 10, peptides 0.05 to 50 nmoles/ml, hCG 0.01 to 1,000 IU, native β-hCG 100 to 1,000 μg, listed as native α-chain",inactive

# From patent publication US6699656B2, “Treatment and prevention of HIV infection by administration of derivatives of human chorionic gonadotropin” (University of Maryland Biotechnology Institute, priority 1996, dated 2004)
